Measurements: patent US20050124021A1 (priority 2000, published 2005)

Chains of the proteins cited; added tags and fusions are not shown. Lines headed by an entry give the natural chain unless they say otherwise; changes in a name come on top.
UniProt P9WJN3: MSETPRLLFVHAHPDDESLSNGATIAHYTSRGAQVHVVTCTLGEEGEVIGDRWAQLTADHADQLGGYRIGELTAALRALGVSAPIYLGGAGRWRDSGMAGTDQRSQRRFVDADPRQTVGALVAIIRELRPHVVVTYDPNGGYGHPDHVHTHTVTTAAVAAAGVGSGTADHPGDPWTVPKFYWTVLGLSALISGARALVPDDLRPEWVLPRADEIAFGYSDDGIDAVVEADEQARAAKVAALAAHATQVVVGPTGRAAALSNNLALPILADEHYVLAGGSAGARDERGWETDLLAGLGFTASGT

How the values were obtained:
[1] = target: T1, M. tuberculosis MshB (Rv1170) (Mycobacterium tuberculosis, UniProt P9WJN3); assay: Metal ion dependence of MshB amidase activity; settings: for Amidase Specific Activity: 0.1 mM MSmB as substrate with 0.1 mM metal ion; for Amidase Activity relative rate: relative to apoenzyme, 0.1 mM MSmB; for Amidase Activity relative rate / Activation of MshB apoenzyme, amidase reaction: 0.1 mM metal ion
[2] = target: T1, M. tuberculosis MshB (Rv1170); assay: Metal ion dependence of MshB deacetylase activity; settings: for Deacetylase Specific Activity: 0.1 mM GlcNAc-Ins as substrate with 0.1 mM metal ion; for Deacetylase Activity Relative rate: relative to apoenzyme, 0.1 mM GlcNAc-Ins; for Deacetylase Activity Relative rate / Activation of MshB apoenzyme, deacetylase reaction: 0.1 mM metal ion
His-tagged MshB = His-tagged MshB (Mycobacterium tuberculosis, UniProt P9WJN3); assay: Inhibition of His-tagged MshB amidase reaction; format: biochemical, M. tuberculosis; settings: 0.1 to 1 mM inhibitor, 0.55 mM MSmB
[3] = test system: deacetylase activity of M. smegmatis mc^2155 extract; assay: Deacetylase activity (GlcN-Ins production) in centrifuged cell extracts, strain mc^2155; settings: 100 μM GlcNAc-Ins added, undialyzed extract
[4] = target: T1, M. tuberculosis MshB (Rv1170); assay: Kinetics and substrate specificity of His-tagged MshB, deacetylase reaction; format: biochemical
Rv1170 = Rv1170 (Mycobacterium tuberculosis, UniProt P9WJN3); assay: Deacetylase activity of crude extract from E. coli transformed with pYA1170b; format: biochemical, M. tuberculosis
[5] = deacetylase, Eadie-Hofstee plot

Substance | Amidase Specific Activity [1] [nmol/min/mg] | Amidase Activity relative rate [1] | Deacetylase Specific Activity [2] [nmol/min/mg] | Deacetylase Activity Relative rate [2] | Activation of MshB apoenzyme, amidase reaction [1] | Activation of MshB apoenzyme, deacetylase reaction [2] | further results
NiCl2 | 13 ± 0.7 | 3.8 | 62 ± 23 | 1.8 |  |  | 
MgCl2 | 3.5 ± 0.2 | 1.0 | 41 ± 4 | 1.2 | not activated | not activated | 
CuSO4 | 3.2 ± 0.1 | 0.94 | 32 ± 10 | 0.9 | not activated | not activated | 
CdCl2 | 21 ± 1.5 | 6.2 | 34 ± 2 | 0.97 | enhanced to the level of Zn^2+ | remained at the apoenzyme activity level | 
1-D-myo-inosityl-2-amino-2-deoxy-α-D-glucopyranoside |  |  |  |  |  |  | Inhibition of the amidase activity (His-tagged MshB): lack of inhibition
N-acetyl-1-D-myo-inosityl-2-amino-2-deoxy-α-D-glucopyranoside |  |  |  |  |  |  | Rate of GlcN-Ins production [3]: 19.7±0.4 pmol min^−1 mg of protein^−1; Deacetylase Specific Activity ([4]; 0.1 mM substrate, 50 mM NaCl + 50 mM HEPES pH 7.4, 37° C., Zn^2+ form): 70 ± 3 nmol/min/mg; Km ([4]; deacetylase, 50 mM NaCl, 50 mM HEPES pH 7.5, 37° C., Eadie-Hofstee plot): 400 µM; Vmax [4, 5]: 470 nmol/min/mg; kcat [4, 5]: 0.25 s⁻¹; Relative Rate (deacetylase reaction) ([4]; relative to GlcNAc-Ins deacetylation, 0.1 mM substrate): 1.0; Deacetylase activity with GlcNAc-Ins, fold greater than amidase activity with MSMB (Rv1170): 23 fold; Deacetylase activity with GlcNAc-Ins, fold greater than deacetylase activity with GlcNAc (Rv1170): over 300 fold; Activity, deacetylase reaction (analysis for amine / deacetylase product) (Rv1170; compound as substrate, n = 3): 27 ± 2 nmol min^−1 mg of protein^−1
CaCl2 | 3.3 ± 0.1 | 0.97 | 34 ± 5 | 0.97 | not activated | not activated | 
MnCl2 | 22 ± 0.7 | 6.5 | 69 ± 5 | 2.0 |  |  | 
ZnCl2 | 17 ± 0.7 | 5.0 | 81 ± 16 | 2.3 |  |  | Inhibition by excess Zn^2+ ([2]; 0.1 mM): not inhibitory; Inhibition by excess Zn^2+ ([2]; 1 mM): only slightly inhibitory
